A mixed list of measured activities; the numbers were collected in NIAID ChemDB.

Shared fields: tests in culture; species: Mycobacterium avium complex

Lines come from different laboratories, so protocols vary.

| structure | strain | method | endpoint | result |
|---|---|---|---|---|
| C[C@@H]1CN(c2c(F)c(N)c3c(=O)c(C(=O)O)cn(C4CC4)c3c2F)C[C@H](C)N1 | Isolate 90-0738 | - | MBC | 5 µg/mL |
| CN1CCN(CCCN=c2cc3n(-c4ccc(Cl)cc4)c4ccccc4nc-3cc2Nc2ccccc2)CC1 | 10 strains (HIV+) | - | MIC90 | 0.87 µg/mL |
| CO[C@H]1/C=C/O[C@@]2(C)Oc3c(C)c(O)c4c(O)c(c5c(c4c3C2=O)NC2(CCN(CC(C)C)CC2)N=5)=NC(=O)/C(C)=C\C=C\[C@H](C)[C@H](O)[C@@H](C)[C@@H](O)[C@@H](C)[C@H](OC(C)=O)[C@@H]1C | N-316 (HIV-) | - | MIC | 0.2 µg/mL |
| Cc1ccc2nc(C)c(C(=O)NCc3ccc(C(F)(F)F)cc3)n2c1 | Clinical isolate KAL | MTT | MIC | 0.06 µg/mL |
| Clc1ccc(Nc2cc3nc4ccccc4n(-c4ccc(Cl)cc4)c-3cc2=NCCCN2CCCC2)cc1 | 10 strains (HIV+) | - | MIC90 | 0.83 µg/mL |
| Cc1ccn2c(C(=O)NCc3ccc4c(c3)CCO4)c(C)nc2c1 | Clinical isolate 9141 | MTT | MIC | 2 µg/mL |
| Nc1ccc(S(=O)(=O)c2ccc(N)cc2)cc1 | DW3 | - | MIC | 32 µg/mL |
| CC1(C)N=C(N)N=C(N)N1OCCCOc1cc(Cl)c(Cl)cc1Cl | DW26 | - | MIC | 4 µg/mL |
| CC[C@H]1OC(=O)[C@H](C)[C@@H](OC(=O)CCc2ccccc2)[C@H](C)[C@@H](O[C@@H]2O[C@H](C)C[C@H](N(C)C)[C@H]2O)C(C)(O)C[C@@H](C)/C(=N\OCCCOc2ccccc2)[C@H](C)[C@@H](O)[C@]1(C)O | 20039 (clarithromycin-susceptible) | - | MIC | 3.13 µg/mL |
| C[C@@H]1CN(c2c(F)c(N)c3c(=O)c(C(=O)O)cn(C4CC4)c3c2F)C[C@H](C)N1 | N-951 (HIV+) | - | MIC | 0.5 µg/mL |
| CCc1cc(C(N)=S)ccn1 | 31 strains | broth dilution | EC50 | >2.5 µg/mL |
| CC[C@H]1OC(=O)[C@H](C)[C@@H](OC2C[C@@](C)(OC)[C@@H](OC(=O)C(C)C)[C@H](C)O2)[C@H](C)[C@@H](O[C@@H]2O[C@H](C)C[C@H](N(C)C)[C@H]2O)C(C)(O)C[C@@H](C)/C(=N\OCCCOc2ccccc2)[C@H](C)[C@@H](O)[C@]1(C)O | 20092 (clarithromycin-resistant) | - | MIC | 1.56 µg/mL |
| N[C@@H]1CONC1=O | 713 strains | agar | EC50 | >30 µg/mL |
| CC[C@H]1OC(=O)[C@H](C)[C@@H](O[C@H]2C[C@@](C)(OC)[C@@H](OC(C)=O)[C@H](C)O2)[C@H](C)[C@@H](O[C@@H]2O[C@H](C)C[C@H](N(C)C)[C@H]2O)C(C)(O)C[C@@H](C)/C(=N\OCCc2ccccc2)[C@H](C)[C@@H](O)[C@]1(C)O | 20039 (clarithromycin-susceptible) | - | MIC | 1.56 µg/mL |
| CO[C@H]1/C=C/O[C@@]2(C)Oc3c(C)c(O)c4c(=O)c(c5oc6cc(N7CCN(CC(C)C)CC7)cc(=O)c6nc5c4c3=C2O)NC(=O)/C(C)=C\C=C\[C@H](C)[C@H](O)[C@@H](C)[C@@H](O)[C@@H](C)[C@H](OC(C)=O)[C@@H]1C | N-951 (HIV+) | - | MIC | 0.0313 µg/mL |
| CC[C@H]1OC(=O)[C@H](C)[C@@H](O[C@H]2C[C@@](C)(OC)[C@@H](OC(C)=O)[C@H](C)O2)[C@H](C)[C@@H](O[C@@H]2O[C@H](C)C[C@H](N(C)C)[C@H]2OC(=O)NN(C)Cc2ccccc2)C(C)(O)C[C@@H](C)/C(=N\OCCCC2CCCCC2)[C@H](C)[C@@H](O)[C@]1(C)O | 20039 (clarithromycin-susceptible) | - | MIC | 3.13 µg/mL |
| NNC(=O)c1ccncc1 | N-251 (HIV-) | - | MIC | 4 µg/mL |
| CC(C)N=C(N)/N=C(\N)NOCCCOc1cc(Cl)c(Cl)cc1Cl | 3176 | - | MIC | 32 µg/mL |
| CC[C@H]1OC(=O)[C@H](C)[C@@H](O[C@H]2C[C@@](C)(OC)[C@@H](OC(C)=O)[C@H](C)O2)[C@H](C)[C@@H](O[C@@H]2O[C@H](C)C[C@H](N(C)C)[C@H]2OC(=O)NNCCCCCc2ccccc2)C(C)(O)C[C@@H](C)/C(=N\OCCCC2CCCCC2)[C@H](C)[C@@H](O)[C@]1(C)O | 20092 (clarithromycin-resistant) | - | MIC | 6.25 µg/mL |

Repeating the first 2 entries:

{"structure": "C[C@@H]1CN(c2c(F)c(N)c3c(=O)c(C(=O)O)cn(C4CC4)c3c2F)C[C@H](C)N1", "strain": "Isolate 90-0738", "endpoint": "MBC", "result": "5 µg/mL"}
{"structure": "CN1CCN(CCCN=c2cc3n(-c4ccc(Cl)cc4)c4ccccc4nc-3cc2Nc2ccccc2)CC1", "strain": "10 strains (HIV+)", "endpoint": "MIC90", "result": "0.87 µg/mL"}

An empty or dashed field is not shown. ECn is the concentration giving n% inhibition of infection, replication or growth. MIC50, MIC90 and the like: level of inhibition, or share of isolates inhibited.